Data on one molecule can be found in patent publication US6001867A, “1-aryl-dibenzothiophenes” (American Home Products Corporation, priority 1999, dated 1999).

In this experiment the test system is rat hepatic microsomal PTPases. The experiment can be described thus: Inhibition of tri-phosphorylated insulin receptor dodecaphosphopeptide dephosphorylation by rat hepatic PTPases (malachite green). To be noted: test compound 50 μM; rat hepatic microsomal fraction; substrate 50 uM, 37 deg.C.

For the molecule `O=[As]c1ccccc1` (stereo not shown), the “% Change from Control (PTPase activity)” value is recorded as -57.06%.
